Pooled drug test results. Numbers come from NIAID ChemDB, via PubChem.

Common to all: growth or infection tests; agent: HIV-1

Neighbouring rows are from separate reports. ECn: concentration that inhibits the pathogen or its effect by n%. Percent inhibition refers to the dose given; in toxicity tests it is the harm to the cells. Fold resistance: result on the changed form divided by that on wild type.

Nc1ncnc2c1ncn2[C@H]1CC[C@@H](CO)O1 ; strain: LAV-1 ; cells: U-937 ; read by: virus yield ; measure: inhibition ; dose: 1 µM ; value: 90%
Cc1ccnc2c1NC(=O)c1cccnc1N2C1CC1 ; strain: NNRTI-resistant (RT K103N G190A) ; mutations: RT-K103N G190A ; cells: MAGI ; read by: β-galactosidase ; measure: EC50 ; value: >10 µM
C/C(=C(/CCO)SS/C(CCO)=C(\C)N(C=O)Cc1cnc(C)nc1N)N(C=O)Cc1cnc(C)nc1N ; strain: MN ; cells: H9/HIV-1(MN) + H9 ; read by: p24 ; measure: inhibition ; dose: 500 µM ; value: 99%
CC(C)c1nc(CN(C)C(=O)N[C@H](C(=O)N[C@@H](Cc2ccccc2)C[C@H](O)[C@H](Cc2ccccc2)NC(=O)OCc2cncs2)C(C)C)cs1 ; strain: NL4-3 ; mutations: PR-N88D ; cells: MT-4 ; read by: p24 ; measure: EC90 ; value: 0.01 µM
C[C@H](Cn1cnc2c(N)ncnc21)OCP(=O)(O)O ; strain: Recombinant ; mutations: RT-M41L V118I M184V ; cells: HeLa ; read by: luciferase ; measure: fold resistance ; value: 1
CC(=O)c1ccc(C)cc1NC(C(N)=O)c1c(Cl)cccc1Cl ; strain: IIIB ; mutations: RT-V189I T240I ; cells: MAGI ; read by: MTT ; measure: fold resistance ; value: 40
O=C1N(Cc2ccc(CO)cc2)[C@H](Cc2ccccc2)[C@H](O)[C@@H](O)[C@@H](Cc2ccccc2)N1Cc1ccc(CO)cc1 ; strain: IIIB ; cells: PBMC ; read by: p24 ; measure: inhibition ; dose: 0.07 µM ; value: 90%
CCOc1ccc(Cc2cc(C3CCN(C[C@H]4CN([C@@H](C(=O)O)C5CCCCC5)C[C@@H]4c4cccc(F)c4)CC3)n(CC)n2)cc1 ; strain: BaL ; cells: HeLa ; read by: β-galactosidase ; conditions: 50% human serum ; measure: EC90 ; value: 0.033 µM
Cc1ccnc2c1NC(=O)c1cccnc1N2C1CC1 ; mutations: RT-L74V L100I ; cells: MT-4 ; measure: EC95 ; value: 0.8 µM
Cc1cn([C@H]2C[C@H](N=[N+]=[N-])[C@@H](CO)O2)c(=O)[nH]c1=O ; strain: NL4-3 WT ; cells: MT-4 ; read by: p24 ; measure: EC90 ; value: 0.03 µM
c1cc(CN2CCCNCCNCCCNCC2)ccc1CN1CCCNCCNCCCNCC1 ; strain: SW23 CLADE C R5 ; cells: PBMC ; read by: p24 ; measure: inhibition ; dose: 0.1 µM ; value: 0%
CCn1nc(Cc2cccc(OC)c2)cc1C1CCN(C[C@H]2CN([C@@H](C(=O)O)C(C)(C)C)C[C@@H]2c2cccc(F)c2)CC1 ; strain: BaL ; cells: HeLa ; read by: β-galactosidase ; measure: EC90 ; value: <0.00014 µM
COC(=O)c1cccc(NC(=O)CSc2nnnn2-c2c(C)cc(C)cc2C)c1C ; cells: MT-4 ; read by: p24 ; measure: EC95 ; value: <10 µM
CC(C)CN(C[C@@H](O)[C@H](Cc1ccccc1)NC(=O)O[C@H]1CCOC1)S(=O)(=O)c1ccc(N)cc1 ; strain: IIIB ; mutations: I401T ; cells: MT-2 ; read by: p24 / ELISA ; measure: fold resistance ; value: 0.8
CN(C)c1ccc(-n2nnnc2SCC(=O)Nc2ccccc2Cl)c2ccccc12 ; cells: MT-4 ; read by: p24 ; measure: EC95 ; value: <10 µM
Cc1cn([C@H]2C[C@H](N=[N+]=[N-])[C@@H](CO)O2)c(=O)[nH]c1=O ; strain: IIIB ; mutations: I401T ; cells: MT-2 ; read by: p24 / ELISA ; measure: fold resistance ; value: 0.4
O=c1[nH]cnc2c1ncn2[C@H]1CC[C@@H](CO)O1 ; strain: XM-ABC-resistant ; mutations: RT-K65R L74V M184V Y115F ; cells: MT-4 ; read by: p24 ; measure: EC90 ; value: 52 µM
CCn1nc(Cc2ccc(OC(F)F)cc2)cc1C1CCN(C[C@H]2CN([C@@H](C(=O)O)C(C)C)C[C@@H]2c2cccc(F)c2)CC1 ; strain: BaL ; cells: HeLa ; read by: β-galactosidase ; conditions: 50% human serum ; measure: EC90 ; value: 0.1 µM
CC(C)(C)NC(=O)[C@@H]1C[C@@H]2CCCC[C@@H]2CN1C[C@@H](O)[C@H](Cc1ccccc1)NC(=O)[C@H](CC(N)=O)NC(=O)c1ccc2ccccc2n1 ; strain: NL4-3 ; mutations: PR-L10R M46I L63P V82T I84V ; cells: MT-4 ; read by: p24 ; measure: EC95 ; value: 0.2 µM
O=S(=O)(O)c1cc(N=C=S)ccc1/C=C/c1ccc(N=C=S)cc1S(=O)(=O)O ; strain: GB8 ; cells: JM ; read by: syncytia ; measure: inhibition ; dose: 100 µg/mL ; value: 100%
CCn1nc(Cc2ccc(Oc3ccccc3)cc2)cc1C1CCN(C[C@H]2CN([C@@H](C(=O)O)C(C)C)C[C@@H]2c2cccc(F)c2)CC1 ; strain: BaL ; cells: HeLa ; read by: β-galactosidase ; measure: EC90 ; value: 0.011 µM
C#C[C@]1(CO)O[C@@H](n2cnc3c(N)nc(F)nc32)C[C@@H]1O ; strain: Clinical isolate ; mutations: M41L/A114S/M184V ; cells: MT4-GFP ; read by: fluorescence ; measure: EC50 ; value: 0.06868 µM
Cc1cn([C@H]2C[C@H](N=[N+]=[N-])[C@@H](CO)O2)c(=O)[nH]c1=O ; strain: NRTI resistant ; mutations: RT-M41L D67N V118I M184V L210W T215Y ; cells: HeLa ; read by: luciferase ; measure: EC50 ; value: 0.156 µM
CC[C@H](C)[C@H](C(=O)O)N1C[C@H](CN2CCC(c3cc(Cc4cc(C(F)(F)F)cc(C(F)(F)F)c4)nn3CC)CC2)[C@@H](c2cccc(F)c2)C1 ; strain: BaL ; cells: HeLa ; read by: β-galactosidase ; conditions: 50% human serum ; measure: EC90 ; value: >0.3 µM
Nc1nc(NC2CC2)c2ncn([C@H]3C=C[C@@H](CO)C3)c2n1 ; strain: Recombinant ; mutations: RT-M41L V118I M184V ; cells: HeLa ; read by: luciferase ; measure: EC50 ; value: 4.28 µM
CC[C@H](C)[C@H](C(=O)O)N1C[C@H](CN2CCC(c3cc(Cc4ccc(C(F)(F)F)cc4)nn3CC)CC2)[C@@H](c2cccc(F)c2)C1 ; strain: BaL ; cells: HeLa ; read by: β-galactosidase ; conditions: 50% human serum ; measure: EC90 ; value: 0.033 µM
O=c1[nH]cnc2c1ncn2[C@H]1CC[C@@H](CO)O1 ; strain: JF8(RT-D67N T69D) ; mutations: RT-D67N T69D ; cells: HELA-CD4+ ; read by: plaque count ; measure: fold resistance ; value: 1
CC(C)CN(C[C@@H](O)[C@H](Cc1ccccc1)NC(=O)[C@H](CC(N)=O)NC(=O)c1ccc2ccccc2n1)C(=O)NC(C)(C)C ; strain: NL4-3 ; mutations: PR-L10R M46I L63P V82T ; cells: MT-4 ; read by: p24 ; measure: EC95 ; value: 0.4 µM
S=C(NCCc1cccs1)Nc1ccc(Br)cn1 ; strain: P798-1 Clinical isolate NRTI-resistant ; mutations: RT-M41L T215Y ; cells: HT4 + HeLa ; read by: plaque count ; measure: EC50 ; value: 0.071 µM
CCn1nc(Cc2ccc3ccccc3c2)cc1C1CCN(C[C@H]2CN([C@@H](C(=O)O)C(C)(C)C)C[C@@H]2c2cccc(F)c2)CC1 ; strain: BaL ; cells: HeLa ; read by: β-galactosidase ; measure: EC90 ; value: <0.00014 µM
CC(C)(C)NC(=O)[C@@H]1C[C@@H]2CCCC[C@@H]2CN1C[C@@H](O)[C@H](Cc1ccccc1)NC(=O)[C@H](CC(N)=O)NC(=O)c1ccc2ccccc2n1 ; cells: PBL ; measure: EC99 ; value: 0.015 µM
Cc1ccc(S(=O)(=O)N(CC(C)C)C[C@@H](O)[C@H](Cc2ccccc2)NC(=O)O[C@H]2CO[C@H]3OCC[C@H]32)cc1 ; strain: IIIB ; mutations: K112M K113E V128I ; cells: MT-2 ; read by: p24 / ELISA ; measure: fold resistance ; value: 2.2
Cc1cc(C)c(-n2nnnc2SCC(=O)Nc2ccc(S(N)(=O)=O)cc2Cl)c(C)c1 ; cells: MT-4 ; read by: p24 ; measure: EC95 ; value: <10 µM

Repeating the final 4 entries:

CCn1nc(Cc2ccc3ccccc3c2)cc1C1CCN(C[C@H]2CN([C@@H](C(=O)O)C(C)(C)C)C[C@@H]2c2cccc(F)c2)CC1 ; strain: BaL ; cells: HeLa ; read by: β-galactosidase ; measure: EC90 ; value: <0.00014 µM
CC(C)(C)NC(=O)[C@@H]1C[C@@H]2CCCC[C@@H]2CN1C[C@@H](O)[C@H](Cc1ccccc1)NC(=O)[C@H](CC(N)=O)NC(=O)c1ccc2ccccc2n1 ; cells: PBL ; measure: EC99 ; value: 0.015 µM
Cc1ccc(S(=O)(=O)N(CC(C)C)C[C@@H](O)[C@H](Cc2ccccc2)NC(=O)O[C@H]2CO[C@H]3OCC[C@H]32)cc1 ; strain: IIIB ; mutations: K112M K113E V128I ; cells: MT-2 ; read by: p24 / ELISA ; measure: fold resistance ; value: 2.2
Cc1cc(C)c(-n2nnnc2SCC(=O)Nc2ccc(S(N)(=O)=O)cc2Cl)c(C)c1 ; cells: MT-4 ; read by: p24 ; measure: EC95 ; value: <10 µM